From US20250304927A1, “PRO-PEPTIDE VARIANTS FOR MODULATING ACTIVITY OF TRANSGLUTAMINASES” (CURIE CO. INC., priority 2022, published 2025)

Each substance was assayed on zymogen transglutaminase (assay: zymogen transglutaminase yield by bicinchoninic acid assay). Conditions: zymogen transglutaminase yield relative to wild-type pro-domain.
Design: species or system Streptomyces mobaraensis; key: The symbol, —, represents not determined, neutral, or reduced performance
“D2I, D21T, D22Q: combination variant of pro-peptide SEQ ID NO: 2, Method B (MINGAGEETKSYAETYRLTATQVANINALNESAPAASSAGPSFRAP)” was tested, and the Yield was “—”.
With “D2I, E2S, D21T: combination variant of pro-peptide SEQ ID NO: 2, Method B; E2S probably E7S (MINGAGSETKSYAETYRLTATDVANINALNESAPAASSAGPSFRAP)” the Yield was “—”.
“D2I, E7S, D21I: combination variant of pro-peptide SEQ ID NO: 2, Method B (MINGAGSETKSYAETYRLTAIDVANINALNESAPAASSAGPSFRAP)” was tested, and the Yield was “—”.
In the case of “D2I, E7S, D22Q: combination variant of pro-peptide SEQ ID NO: 2, Method B (MINGAGSETKSYAETYRLTADQVANINALNESAPAASSAGPSFRAP)”, the Yield is reported as “—”.
“D2I, E7S, L18V, D21R: combination variant of pro-peptide SEQ ID NO: 2, Method B (MINGAGSETKSYAETYRVTARDVANINALNESAPAASSAGPSFRAP)” was tested, and the Yield was “—”.
For “D2S, D21T, D22Q: combination variant of pro-peptide SEQ ID NO: 2, Method B (MSNGAGEETKSYAETYRLTATQVANINALNESAPAASSAGPSFRAP)”, the Yield was “—”.
In the case of “D2S, D22Q: combination variant of pro-peptide SEQ ID NO: 2, Method B (MSNGAGEETKSYAETYRLTADQVANINALNESAPAASSAGPSFRAP)”, the Yield is reported as “—”.
For “D2S, E7S, D21I: combination variant of pro-peptide SEQ ID NO: 2, Method B (MSNGAGSETKSYAETYRLTAIDVANINALNESAPAASSAGPSFRAP)”, the Yield was “—”.
In the case of “D2S, E7S, D21T, D22Q: combination variant of pro-peptide SEQ ID NO: 2, Method B (MSNGAGSETKSYAETYRLTATQVANINALNESAPAASSAGPSFRAP)”, the Yield is reported as “—”.
In the case of “D2S, E7S, D22Q: combination variant of pro-peptide SEQ ID NO: 2, Method B (MSNGAGSETKSYAETYRLTADQVANINALNESAPAASSAGPSFRAP)”, the Yield is reported as over 1.2 fold.
“D2S, E7S: combination variant of pro-peptide SEQ ID NO: 2, Method B (MSNGAGSETKSYAETYRLTADDVANINALNESAPAASSAGPSFRAP)” was tested, and the Yield was “—”.
With “D2S, L18V, D22Q: combination variant of pro-peptide SEQ ID NO: 2, Method B (MSNGAGEETKSYAETYRVTADQVANINALNESAPAASSAGPSFRAP)” the Yield was “—”.
With “E7S, D21R: combination variant of pro-peptide SEQ ID NO: 2, Method B (MDNGAGSETKSYAETYRLTARDVANINALNESAPAASSAGPSFRAP)” the Yield was “—”.
For “E7S, D21T, D22Q: combination variant of pro-peptide SEQ ID NO: 2, Method B (MDNGAGSETKSYAETYRLTATQVANINALNESAPAASSAGPSFRAP)”, the Yield was “—”.
For “E7S, L18V, D21I: combination variant of pro-peptide SEQ ID NO: 2, Method B (MDNGAGSETKSYAETYRVTAIDVANINALNESAPAASSAGPSFRAP)”, the Yield was “—”.
“E7S, L18V, D21R: combination variant of pro-peptide SEQ ID NO: 2, Method B (MDNGAGSETKSYAETYRVTARDVANINALNESAPAASSAGPSFRAP)” was tested, and the Yield was “—”.
In the case of “L18V, D21T, D22Q: combination variant of pro-peptide SEQ ID NO: 2, Method B (MDNGAGEETKSYAETYRVTATQVANINALNESAPAASSAGPSFRAP)”, the Yield is reported as “—”.
For “L18V, D21T: combination variant of pro-peptide SEQ ID NO: 2, Method B (MDNGAGEETKSYAETYRVTATDVANINALNESAPAASSAGPSFRAP)”, the Yield was “—”.
